Reference: paper PMC3873415, “A Non-Biological Method for Screening Active Components against Influenza Virus from Traditional Chinese Medicine by Coupling a LC Column with Oseltamivir Molecularly Imprinted Polymers” (PLoS ONE, 2013)

System: MDCK cells
Settings: dog

phillyrin
TCD0 (maximum non-toxic concentration): 1 mg/mL
